{
  "sequences": {"note": "Chains of the proteins cited; added tags and fusions are not shown.", "UniProt Q9I2S3, whole entry": "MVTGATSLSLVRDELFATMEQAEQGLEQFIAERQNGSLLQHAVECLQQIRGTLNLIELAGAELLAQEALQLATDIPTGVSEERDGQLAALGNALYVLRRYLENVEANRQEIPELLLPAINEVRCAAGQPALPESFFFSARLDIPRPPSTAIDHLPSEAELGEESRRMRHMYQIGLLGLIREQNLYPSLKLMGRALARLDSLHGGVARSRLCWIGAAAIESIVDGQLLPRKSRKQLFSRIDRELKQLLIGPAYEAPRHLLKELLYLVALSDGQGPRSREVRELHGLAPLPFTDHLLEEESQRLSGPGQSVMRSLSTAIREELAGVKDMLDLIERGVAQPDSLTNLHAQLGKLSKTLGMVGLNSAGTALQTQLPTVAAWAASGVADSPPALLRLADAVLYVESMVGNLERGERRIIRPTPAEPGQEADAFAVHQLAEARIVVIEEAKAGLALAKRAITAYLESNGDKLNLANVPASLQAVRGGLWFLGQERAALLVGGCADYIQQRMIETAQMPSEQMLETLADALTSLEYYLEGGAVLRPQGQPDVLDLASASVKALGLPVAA", "UniProt P25084, whole entry": "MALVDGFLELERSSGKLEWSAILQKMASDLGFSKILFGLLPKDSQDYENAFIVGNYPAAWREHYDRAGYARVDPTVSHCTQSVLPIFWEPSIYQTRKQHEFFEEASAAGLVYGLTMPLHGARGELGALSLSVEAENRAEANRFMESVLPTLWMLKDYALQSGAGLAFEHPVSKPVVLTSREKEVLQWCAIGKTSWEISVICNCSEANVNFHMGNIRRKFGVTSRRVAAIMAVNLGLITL", "UniProt P54292, whole entry": "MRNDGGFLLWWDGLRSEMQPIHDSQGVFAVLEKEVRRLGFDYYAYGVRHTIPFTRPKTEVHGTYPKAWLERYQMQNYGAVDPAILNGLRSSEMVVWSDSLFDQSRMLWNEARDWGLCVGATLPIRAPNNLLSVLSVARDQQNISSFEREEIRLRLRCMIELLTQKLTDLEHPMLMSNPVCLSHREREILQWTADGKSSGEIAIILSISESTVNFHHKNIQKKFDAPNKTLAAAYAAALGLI"},
  "source": "patent US11058716B2",
  "about": "(priority 2015, dated 2021)",
  "key": {"[1]": {"tested_on": "Pseudomonas aeruginosa model strain PAO1", "experiment": "flat-plate culture, PCN extracted with chloroform, absorption at 520 nm", "experimental": "According to this embodiment, the strain used is the Pseudomonas aeruginosa model strain PAO1 (which is more common, and is available from various collection centers). This bacteria are obligate aerobic bacteria and is culture under 37° C. in common bacteria culture medium (such as LB medium) for 20˜24 h.\nIn this study, the effect of NO on the synthesis of PCN in bacterial cells is investigated through adding multiple sets of flat plate samples of SNPs at different concentrations and one blank flat plate. The final concentrations of SNPs in each group are 20, 40, 60, 80, and 100 μM respectively. After PAO1 is cultured for 22 hours, the PCN produced by the cells in the flat plate is extracted with chloroform, condensed, and then developed with hydrochloric acid, and the level of PCN produced by the cells is determined according to the light absorption value of the coloring solution at 520 nm."}, "[2]": {"tested_on": "Pseudomonas aeruginosa model strain PAO1", "experiment": "shake flask culture, PCN detection (520 nm)", "experimental": "2) PCN detection: The PCN produced by the bacterial cells in the bacteria solution is extracted with chloroform, concentrated, and then developed with hydrochloric acid, then the level of PCN produced by the bacteria is determined according to the light absorption value at 520 nm.\n(§1) According to this embodiment, the strain used is the Pseudomonas aeruginosa model strain PAO1; the clinical strain is isolated from Shaanxi Provincial People's Hospital and is isolated by the following method: Selective medium such as MacConkey agar (MAC) is inoculated to clinical specimen with normal flora or specimen collected from the environment; plain or blood agar media is inoculated to clinical specimen without normal flora such as blood, cerebrospinal fluid, puncture fluid, and etc. […] Liquefied gelatin can decompose urea, nitrate reduction to produce nitrite and nitrogen is produced, indole negative without producing H2S, arginine dihydrolase positive by using citrate. Based on the above physiological and biochemical characteristics, it is determined that the isolated strain is Pseudomonas aeruginosa.\nIn this study, shake flask culture is used to determine the effect of SNP on the growth of PAO1 and PCN biosynthesis. Multiple sets of samples with different concentrations of SNPs and one blank sample are used to study the effect of NO on cell growth and PCN synthesis. The final concentrations of SNPs in each group are 20, 60, 100, 140, 160, and 200 μM respectively. Samples are taken every 2 hours during shake flask culture for cell growth detection and PCN detection. The results are shown in A and B in FIG. 1. When the concentration of NO donor SNP is less than 100 μM, it has relatively small effect on the growth of PAO1 strain of Pseudomonas aeruginosa."}, "[3]": {"tested_on": "Pseudomonas aeruginosa model strain PAO1", "experiment": "shake flask culture, bacterial growth (600 nm)", "conditions": "concentration less than 100 μM", "experimental": "1) Detection of bacterial growth: The growth of bacterial cells is determined by the light absorption value at 600 nm every 2 hours\nas §1\nIn this study, shake flask culture is used to determine the effect of SNP on the growth of PAO1 and PCN biosynthesis. Multiple sets of samples with different concentrations of SNPs and one blank sample are used to study the effect of NO on cell growth and PCN synthesis. The final concentrations of SNPs in each group are 20, 60, 100, 140, 160, and 200 μM respectively. […]"}, "PAO1 protein": {"tested_on": "PAO1 protein", "experiment": "overall SNO level of protein after NO donor treatment (IBP)", "format": "cell-based, Pseudomonas aeruginosa", "conditions": "after treatment with NO donor"}, "FimL": {"molecular_target": "FimL (Pseudomonas aeruginosa, UniProt Q9I2S3)", "experiment": "SNO modification by IBP enrichment and TMT mass spectrometry", "source_text": "(§2) Principle of Implementation: The present invention utilizes the irreversible avidin labeling (IBP) method to affinity enrich the SNO modified protein, analyzes the enriched SNO modified protein by mass spectrometry, and combines literature data to obtain a possible SNO modification key protein for NO inhibition on PCN synthesis.\n(§3) After processing Pseudomonas aeruginosa with NO donor treatment, collect the bacteria and obtain protein of bacteria by cleavage; use irreversible biotinylation procedure (IBP) for blocking, reduction and biotin labelling to produce Thionitrosylation-modified protein, which is then enriched and modified with Streptavidin. Process elution of modified protein by 2.5% SDS. After separation by gel electrophoresis, enzymatic hydrolysis of protein gel into peptides. Labeled modified protein peptides by mass spectrometric TMT reagents. Perform mass spectrometry after desalting. Identify the protein that undergoes SNO modification (nitrosylation) and quantitative changes after NO donor processing.\n(§4) Note: 129 isotope labeled SNP treatment group with nitrosylated modified protein samples, 128 isotope marker control group with nitrosylated modified protein samples, the value of 129/128 of the target protein in the mass spectrometry test results represents: the relative change in the thiosylated modification of this protein in the SNP treatment group when compared with the control group."}, "LasR": {"molecular_target": "LasR (Pseudomonas aeruginosa, UniProt P25084)", "experiment": "SNO modification by IBP enrichment and TMT mass spectrometry", "source_text": "as §2, §3, §4"}, "PhzA": {"tested_on": "PhzA", "experiment": "SNO modification by IBP enrichment and TMT mass spectrometry", "source_text": "as §2, §3, §4"}, "PhzB": {"tested_on": "PhzB", "experiment": "SNO modification by IBP enrichment and TMT mass spectrometry", "source_text": "as §2, §3, §4"}, "PilL": {"tested_on": "PilL", "experiment": "SNO modification by IBP enrichment and TMT mass spectrometry", "source_text": "as §2, §3, §4"}, "RhlR": {"molecular_target": "RhlR (Pseudomonas aeruginosa, UniProt P54292)", "experiment": "SNO modification by IBP enrichment and TMT mass spectrometry", "source_text": "as §2, §3, §4"}},
  "note": "This is a selection: effects in other tests are not listed, and their absence says nothing.",
  "data": [
    {"substance": "sodium nitroprusside", "values": [
      {"measurement": "synthesis of PCN with increasing concentration", "setting": "[1]; 20 μM˜60 μM, 22 hours", "value": "reduced significantly"},
      {"measurement": "relatively ideal concentration for PCN reduction", "setting": "[1]; decrease flattened above this concentration", "value": 60, "unit": "µM"},
      {"measurement": "inhibitory effect on the synthesis of PCN", "setting": "[2]; 60 μM", "value": "most significant inhibitory effect"},
      {"measurement": "synthesis of PCN with increasing concentrations", "setting": "[2]; 20˜100 μM", "value": "decreases significantly"},
      {"measurement": "PCN synthesis reduced", "setting": "[2]; 60 μm SNP treatment", "value": 82, "unit": "%"},
      {"measurement": "effect on the growth of PAO1 strain", "setting": "[3]", "value": "relatively small effect"},
      {"measurement": "overall SNO level of the PAO1 protein", "setting": "PAO1 protein", "value": "increased significantly"},
      {"measurement": "129/128 (relative change in nitrosylated modification, SNP treatment group vs control group)", "setting": "FimL", "value": 1.352},
      {"measurement": "129/128 (relative change in nitrosylated modification, SNP treatment group vs control group)", "setting": "LasR", "value": 1.447},
      {"measurement": "129/128 (relative change in nitrosylated modification, SNP treatment group vs control group)", "setting": "PhzA", "value": 1.374},
      {"measurement": "129/128 (relative change in nitrosylated modification, SNP treatment group vs control group)", "setting": "PhzB", "value": 1.388},
      {"measurement": "129/128 (relative change in nitrosylated modification, SNP treatment group vs control group)", "setting": "PilL", "value": 1.338},
      {"measurement": "129/128 (relative change in nitrosylated modification, SNP treatment group vs control group)", "setting": "RhlR", "value": 1.574}
    ]}
  ]
}
